Results as given in patent publication US20250011397A1 (HOSPITAL FOR SICK CHILDREN, published 2025).

B1: mAb 80 (antibody, V domains shown)
VH: QVQLVQSGAEVKKPGSSVKVSCKASGGTFNRYAFSWVRQAPGQGLEWMGGIIPIFGTANYAQKFQGRVTITADESTSTAYMELSSLRSEDTAVYYCARSTRELPEVVDWYFDLWGRGTLVTVSS
VL: DIVMTQSPDSLAVSLGERATINCKSSQSVLYSSNNKNYLAWYQQKPGQPPKLLIYWASTRESGVPDRFSGSGSGTDFTLTISSLQAEDVAVYYCQQYYSAPLTFGGGTKVEIKR
notes: also called IgG 80; 80 mAb
B2: mAb 298 (antibody, V domains shown)
VH: QVQLVQSGAEVKKPGASVKVSCKASGGTFSTYGISWVRQAPGQGLEWMGWISPNSGGTDLAQKFQGRVTMTRDTSTSTVYMELSSLRSEDTAVYYCASDPRDDIAGGYWGQGTLVTVSS
VL: not shown
notes: also called IgG 298; antibody 298

Molecular target: T1, SARS-CoV-2 receptor binding domain (RBD), wild type, His-tagged (BEI NR52309) (SARS-CoV-2, UniProt P0DTC2 319-541)
T1 construct: also called WT RBD
Assay: RBD KD column; method and antibody format not stated

| Binder | Kd [nM] |
| --- | --- |
| B1 | 142 |
| B2 | 24 |
